A mixed list of measured activities; the numbers were collected in NIAID ChemDB.

All rows: tests in culture; agent: Candida albicans

Neighbouring rows are from separate reports.

CCCCCCCCCC[n+]1cccc(/C=C/C(=O)c2ccc(OC)cc2)c1 ; read-out: MIC ; result: <6.8 µg/mL
COC(=O)c1ccc(N2C(=O)C(OC(C)=O)C2c2ccc(F)cc2)cc1 ; strain or isolate: SH/T54 ; read-out: MIC ; result: 35.01 µM
C[C@@H]1Oc2ccccc2/C(=N/OCc2ccccc2)[C@H]1n1ccnc1 ; strain or isolate: ATCC 10231 ; read-out: MIC ; result: 1 µg/mL
Cc1c(CN(C)C)cc(-c2ccc(Cl)cc2)n1-c1ccccc1 ; strain or isolate: 20 strains ; read-out: Mean MIC ; result: 38.4 µg/mL
OC(Cn1cncn1)(Cn1cncn1)c1ccc(F)cc1F ; strain or isolate: 2453 strains ; read-out: MIC50 ; result: 0.25 µg/mL
COc1cc(/C=N/O)ccc1OP1(Oc2ccc(/C=N/O)cc2OC)=NP(Oc2ccc(/C=N/O)cc2OC)(Oc2ccc(/C=N/O)cc2OC)=NP(Oc2ccc(/C=N/O)cc2OC)(Oc2ccc(/C=N/O)cc2OC)=N1 ; read-out: MIC ; read by: agar diffusion / agar ; result: >100 µg/mL
C[C@@H]1Oc2cc(Cl)ccc2/C(=N/OCc2ccccc2)[C@H]1n1ccnc1 ; strain or isolate: ATCC 10231 ; read-out: MIC ; result: 0.25 µg/mL
CCC(C)n1ncn(-c2ccc(N3CCN(c4ccc(OC[C@H]5CO[C@](Cn6cncn6)(c6ccc(Cl)cc6Cl)O5)cc4)CC3)cc2)c1=O ; strain or isolate: 34 isolates ; read-out: MIC90 ; result: 0.13 µg/mL
C=CCc1ccc(O)c(OC)c1 ; strain or isolate: 2780 ; read-out: MIC90 ; read by: turbidity ; result: 485 µg/mL
C=C1CO[C@H]2[C@@H](C)OC(OC[C@@]34C[C@H]5[C@H](C)CC[C@@H]5[C@@]5(C=O)C[C@@H]3C=C(C(C)C)[C@@]45C(=O)O)C[C@@H]12 ; strain or isolate: Isolate 4711E fluconazole-susceptible ; read-out: MIC ; result: <0.01 µg/mL
COc1ccc(N2C(=O)C(O)C2c2ccccc2)cc1 ; strain or isolate: SH/T54 ; read-out: MIC ; result: 46.45 µM
Cc1c(Cn2ccnc2)cc(-c2ccc(Cl)cc2)n1-c1ccc(Cl)cc1 ; strain or isolate: 20 strains ; read-out: Mean MIC ; result: 34 µg/mL
C[C@@H]1Oc2ccccc2/C(=N/OCc2ccc(Cl)c(Cl)c2)[C@H]1n1ccnc1 ; strain or isolate: ATCC 10231 ; read-out: MIC ; result: 8 µg/mL
Cc1ccc(-c2ccc(Cl)cc2)n1-c1ccc(F)cc1 ; strain or isolate: 20 strains ; read-out: Mean MIC ; result: >200 µg/mL
COc1ccc(C(=O)/C=C/c2cccnc2)cc1 ; read-out: MIC ; result: 32.5 µg/mL
COc1cc(/C=N/O)ccc1OP1(Oc2ccc(/C=N/OC(=O)c3cccs3)cc2OC)=NP(Oc2ccc(/C=N/O)cc2OC)(Oc2ccc(/C=N/OC(=O)c3cccs3)cc2OC)=NP(Oc2ccc(/C=N/OC(=O)c3cccs3)cc2OC)(Oc2ccc(/C=N/OC(=O)c3cccs3)cc2OC)=N1 ; read-out: MIC ; read by: agar diffusion / agar ; result: 75 µg/mL
C[C@@H](SC1COC(/C=C/C=C/c2ccc(C#N)cc2F)OC1)[C@](O)(Cn1cncn1)c1ccc(F)cc1F ; strain or isolate: CAL-0008 ; read-out: MIC ; result: 0.5 µg/mL
C[C@@H]1Oc2ccccc2/C(=N/OCc2ccc(Cl)cc2)[C@H]1n1cncn1 ; strain or isolate: ATCC 10231 ; read-out: MFC ; result: >64 µg/mL
CCCCCCCCCCCC[n+]1cccc(/C=C/C(=O)c2ccc(OC)cc2)c1 ; read-out: MIC ; result: <7.73 µg/mL
CCCSc1ccc2nc(NC(=O)OC)[nH]c2c1 ; setting: 24 h ; strain or isolate: 92-824 ; read-out: MIC ; result: 5 µg/mL
CCCCCCCCCCCC[n+]1cccc(/C=C/C(=O)c2ccccc2OC)c1 ; read-out: MIC ; result: <7.25 µg/mL
Clc1ccc(COC(Cn2ccnc2)c2ccc(Cl)cc2Cl)c(Cl)c1 ; strain or isolate: ATCC 10231 ; read-out: MIC ; result: 6.25 µg/mL
COc1cc(/C=N/O)ccc1OP1(Oc2ccc(/C=N/OCc3ccccc3)cc2OC)=NP(Oc2ccc(/C=N/O)cc2OC)(Oc2ccc(/C=N/OCc3ccccc3)cc2OC)=NP(Oc2ccc(/C=N/O)cc2OC)(Oc2ccc(/C=N/OCc3ccccc3)cc2OC)=N1 ; read-out: MIC ; read by: agar diffusion / agar ; result: >100 µg/mL
CC(=O)OC1C(=O)N(c2ccccc2)C1c1ccc([N+](=O)[O-])cc1 ; strain or isolate: SH/T54 ; read-out: MIC ; result: 18.4 µM
CCCCCCCCCC[n+]1cccc(/C=C/C(=O)c2ccccc2OC)c1 ; read-out: MIC ; result: <7.34 µg/mL
Cc1cc(CN2CCN(C)CC2)c(C)n1-c1ccc(Cl)cc1Cl ; strain or isolate: 20 strains ; read-out: Mean MIC ; result: 155 µg/mL
O=C1C(O)C(c2ccccc2)N1c1ccccc1 ; strain or isolate: SH/T54 ; read-out: MIC ; result: 52.29 µM
Cc1ccc(C(C)C)cc1O ; strain or isolate: M1 ; read-out: MIC ; result: 0.16 µg/mL
CS(=O)(=O)OC1C(=O)N(c2ccccc2)C1c1ccccc1 ; strain or isolate: SH/T54 ; read-out: MIC ; result: 18.92 µM
COc1cc(/C=N/O)ccc1OP1(Oc2ccc(/C=N/OC(=O)c3ccccc3)cc2OC)=NP(Oc2ccc(/C=N/OC(=O)c3ccccc3)cc2OC)(Oc2ccc(/C=N/OC(=O)c3ccccc3)cc2OC)=NP(Oc2ccc(/C=N/OC(=O)c3ccccc3)cc2OC)(Oc2ccc(/C=N/OC(=O)c3ccccc3)cc2OC)=N1 ; read-out: MIC ; read by: agar diffusion / agar ; result: 75 µg/mL
C[C@@H]1Oc2ccccc2/C(=N/OCc2cccc(F)c2)[C@H]1n1ccnc1 ; strain or isolate: ATCC 10231 ; read-out: MFC ; result: >64 µg/mL
Cc1c(Cn2ccnc2)cc(-c2ccc(Cl)cc2)n1-c1ccccc1 ; strain or isolate: 20 strains ; read-out: Mean MIC ; result: 50.7 µg/mL
CCCCCCCCCCCC[n+]1ccc(/C=C/C(=O)c2ccccc2OC)cc1 ; read-out: MIC ; result: <7.65 µg/mL
Cc1c(CNc2ccccc2)cc(-c2ccccc2)n1-c1ccc(Cl)cc1Cl ; strain or isolate: 20 strains ; read-out: Mean MIC ; result: >200 µg/mL
COC(=O)c1ccc(N2C(=O)C(OS(=O)(=O)c3ccc(C)cc3)C2c2ccc(OC)cc2)cc1 ; strain or isolate: SH/T54 ; read-out: MIC ; result: 24.17 µM
Cc1c(CN2CCN(C)CC2)cc(-c2ccc(Cl)cc2)n1-c1ccc([N+](=O)[O-])cc1 ; strain or isolate: 20 strains ; read-out: Mean MIC ; result: 100 µg/mL
C[C@@H]1Oc2ccccc2/C(=N/OCc2ccc(Cl)cc2)[C@H]1n1ccnc1 ; strain or isolate: ATCC 10231 ; read-out: MIC ; result: 2 µg/mL
COc1ccc2cc3[n+](cc2c1OC)CCc1cc2c(cc1-3)OCO2 ; strain or isolate: ATCC 10231 ; read-out: MIC ; result: 250 µg/mL
Cc1c(CN2CCCC2)cc(-c2ccc(Cl)cc2)n1-c1ccc([N+](=O)[O-])cc1 ; strain or isolate: 20 strains ; read-out: Mean MIC ; result: 10.9 µg/mL

The first 5 rows once more:

structure | setting | strain or isolate | read-out | read by | result
CCCCCCCCCC[n+]1cccc(/C=C/C(=O)c2ccc(OC)cc2)c1 |  |  | MIC |  | <6.8 µg/mL
COC(=O)c1ccc(N2C(=O)C(OC(C)=O)C2c2ccc(F)cc2)cc1 |  | SH/T54 | MIC |  | 35.01 µM
C[C@@H]1Oc2ccccc2/C(=N/OCc2ccccc2)[C@H]1n1ccnc1 |  | ATCC 10231 | MIC |  | 1 µg/mL
Cc1c(CN(C)C)cc(-c2ccc(Cl)cc2)n1-c1ccccc1 |  | 20 strains | Mean MIC |  | 38.4 µg/mL
OC(Cn1cncn1)(Cn1cncn1)c1ccc(F)cc1F |  | 2453 strains | MIC50 |  | 0.25 µg/mL

Blank or dashed fields: not listed here. A number after MIC or MFC names an inhibition level or a share of isolates.